Substitutions are numbered along the chain they refer to. Where “and” joins values, the source holds several entries; their conditions need not be identical. Equal entries are not always repeated.
B1: HB80.2 ([change], [change], Delta54-95) (designed binder)
chain: MASTRGSGRPWDFSENLAFELALAFTNKDTPDRWAKVAQYVSGRTPEEVKKHYE
B2: HA Binder 36 (HB36), original design (designed binder)
chain: MSNAMDGQQLNRLLLEWIGAWDPFGLGKDAYDVEAEAVLQAVYETEDAFDLAMRIMWIYAFAFNRPIPFPHAQKLARRLLELKQAASSPLPLE
B3: HB36.3 (Asp47Ser, Ala60Val) (designed binder)
chain: B2 chain with D47S, A60V
B4: HB36.2 ([change]) (designed binder)
chain: B2 chain with A60V
B5: HB36.4 (Asp47Ser, Ala60Val, Asn64Lys) (designed binder)
chain: B2 chain with D47S, A60V, N64K
B6: HB80 [change] (designed binder)
chain: MASTRGSGRPWDFSENLAFELALAFTNKDTPDRWANVAQYVSGRTPEEVKKHYEILVEDIKYIESGKVPFPNYRTTGGNMKTDEKRFRNLKIRLE
B7: HB80 [change] (designed binder)
chain: B6 chain with T26M, N36K
B8: HB80, original design (designed binder)
chain: B6 chain with T26M
B9: HB36.3 [change] (designed binder)
chain: B2 chain with D47S, F49A, A60V
B10: HB36.3 [change] (designed binder)
chain: B2 chain with D47S, W57A, A60V
B11: HB36.3 [change] (designed binder)
chain: B2 chain with D47S, M53A, A60V
B12: HB80.1 [change] (designed binder)
chain: B6 chain with N36K, Y40A
B13: HB80.1 [change] (designed binder)
chain: B6 chain with F25A, N36K
B14: HB80.1 [change] (designed binder)
chain: B6 chain with F13A, N36K
B15: HB80.3 (Asp12Gly, Ala24Ser, Met26Thr, Asn36Lys, Delta54-95) (designed binder)
chain: B1 chain with D12G, A24S
B16: HB36 [change] (designed binder)
chain: B2 chain with A60T
B17: HB80 [change] (designed binder)
chain: B6 chain with T26V
B18: HB80.3_02 (designed binder)
chain: B1 chain with D12K, L17I, L21I, A24S, A35K, S42K
B19: HB80.3_s4_E96 (designed binder)
chain: MASTRGSGRPWKFSENVAFEIALSFTNKDTPDRWRKVAYYVRGRTPEEVKKHYE
B20: HB80.3_s4_E87 (designed binder)
chain: B1 chain with D12K, L17I, A24Y, A35K, Q39R, S42K
B21: HB80.3_s5_E01 (designed binder)
chain: B19 chain with R5K, R9K, Y39R, R44K
B22: HB80.3_s4_E90 (designed binder)
chain: B19 chain with I21L, S24Y, R35T, Y39R, R42K
B23: HB80.3_s4_E93 (designed binder)
chain: B19 chain with I21L, S24Y, R35G, Y39Q
B24: HB80.3_s4_E86 (designed binder)
chain: B19 chain with I21L, S24Y, R35K, Y39R, R42K
B25: HB80.3_s4_E81 (designed binder)
chain: B19 chain with K12R, R35K, Y39R
B26: HB80.3_s4_E88 (designed binder)
chain: B19 chain with S14K, V17L, A18E, R35K
B27: HB80.3_s4_E83 (designed binder)
chain: B19 chain with K12G, S14R, V17I, S24Y, Y39R, R42K
B28: HB80.3_s4_E98 (designed binder)
chain: B19 chain with K12R, R35A, Y39R
B29: HB80.3_s4_E92 (designed binder)
chain: B19 chain with Y39R
B30: HB80.3_s4_E85 (designed binder)
chain: B1 chain with D12G, L17I, A24Y, A35G, Q39R, S42R
B31: HB80.3_s4_E99 (designed binder)
chain: B1 chain with D12K, A24Y, Q39Y, S42K
B32: HB80.3_s4_E100 (designed binder)
chain: B19 chain with K12R, R35K, Y39R, R42K
B33: HB80.3_s4_E84 (designed binder)
chain: B19 chain with K12R, Y39R
B34: HB36 clone A4 ([change], [change]) (designed binder)
chain: B2 chain with D47R, P70L
B35: HB36 clone A2 ([change], [change], [change]) (designed binder)
chain: B2 chain with D47L, P68L, P70L
B36: HB36 clone C4 ([change], [change]) (designed binder)
chain: B2 chain with D47H, P70S
B37: HB36 clone B2 ([change]) (designed binder)
chain: B2 chain with D47E
B38: HB36 clone E1 ([change], [change]) (designed binder)
chain: B2 chain with G19C, D47Y
B39: HB36 clone C3 ([change]) (designed binder)
chain: B2 chain with D47H
B40: HB36 clone B6 ([change]) (designed binder)
chain: B2 chain with D47W
B41: HB36 clone B3 ([change]) (designed binder)
chain: B2 chain with D47R
B42: HB36 clone D3 ([change], [change]) (designed binder)
chain: B2 chain with G7S, D47N

target: T1, A/South Carolina/1/1918 (H1N1) hemagglutinin ectodomain, biotinylated (Influenza A virus A/South …)

Binder	Kd	apparent Kd (pooled screen)
B1	5 nM	–
B2	200 nM and > 2000 nM	–
B3	4 nM and 29 nM	–
B4	8 nM	–
B5	–	4 nM and 22 nM
B6	100 nM	–
B7	300 nM	–
B8	> 5000 nM	–

target: T1, A/South Carolina/1/1918 (H1N1) …; remark: another data set of the same source

Binder	ΔΔG [kcal/mol]	Kd [nM]
B9	> 3.4	–
B3	–	5
B10	> 3.4	–
B11	1.8	115
B12	1.7	140
B13	> 2.9	–
B14	> 2.9	–

target: T1, A/South Carolina/1/1918 (H1N1) …; remark: another data set of the same source

Binder	apparent Kd (pooled screen) [nM]	apparent koff (pooled screen) [s⁻¹]	apparent kon (pooled screen) [M⁻¹ s⁻¹]	Kd [nM]	kon [M⁻¹ s⁻¹]
B15	38	0.039	1e+06	–	–
B3	–	–	–	29	1.2e+06
B5	22.3	0.007	320000	–	–

target: T1, A/South Carolina/1/1918 (H1N1) …; remark: another data set of the same source

Binder	fold improvement of affinity relative to HB36 [fold]	fold increase of apparent binding affinity relative to HB36 [fold]	fold improvement of affinity relative to HB80 [fold]
B4	> 10	25	–
B16	> 10	25	–
B6	–	–	> 10
B7	–	–	> 10
B17	–	–	> 10

target: T1, A/South Carolina/1/1918 (H1N1) …; remark: another data set of the same source

Binder	binding result
B18	binds
B19	binds
B20	binds
B21	binds
B22	binds
B23	binds
B24	binds
B25	binds
B26	binds
B27	binds
B28	binds
B29	binds
B30	binds
B31	binds
B32	binds
B33	binds

target: T1, A/South Carolina/1/1918 (H1N1) …; remark: another data set of the same source

Binder	EC50 (read off the curve) [nM]
B5	~5

target: T1, A/South Carolina/1/1918 (H1N1) …; remark: another data set of the same source

Binder	EC50 (read off the curve) [nM]
B15	~3

target: T1, A/South Carolina/1/1918 (H1N1) …; remark: another data set of the same source

Binder	Kd [nM]
B34	5 to 15
B35	5 to 15
B36	2 to 5
B37	15 to 40
B38	5 to 15
B39	2 to 5
B40	5 to 15
B41	15 to 40
B42	5 to 15

From US20140206628A1 (University of Washington, published 2014)
